Pooled drug test results. Numbers come from NIAID ChemDB, via PubChem.

All rows: whole-cell or culture tests; species: HIV-1; cell line: MT-4; measure: fold resistance

An empty or dashed field is not shown.

Cc1cccc(-n2ccc(CN3CCN(C[C@@H](O)C[C@@H](Cc4cccnc4)C(=O)N[C@H]4c5ccccc5OC[C@H]4O)[C@H](C(=O)NCC(F)(F)F)C3)c2)c1 ; strain: K-60C Clinical isolate ; mutations: PR-L10I M46I I54V Q58E L63P I64V V77I V82F I84V L90M I93L ; read by: p24 ; value: ≥3.8
CCc1c(C)[nH]c(=O)c(N(C)C)c1C(=O)c1cccc(Br)c1 ; mutations: RT-L100I K103N ; read by: cytopathic effect / MTT ; value: 37.5
Nc1cccc2c1nc(-c1c(F)cccc1F)n2Cc1c(F)cccc1F ; mutations: RT-L100I ; read by: cytopathic effect / MTT ; value: 0.6
O=c1[nH]cnc2c1ncn2[C@H]1CC[C@@H](CO)O1 ; strain: XM-ABC-resistant ; mutations: RT-K65R L74V M184V Y115F ; read by: p24 ; value: 7.5
CC(C)(C)NC(=O)[C@@H]1C[C@@H]2CCCC[C@@H]2CN1C[C@@H](O)[C@H](Cc1ccccc1)NC(=O)[C@H](CC(N)=O)NC(=O)c1ccc2ccccc2n1 ; strain: NL4-3 ; mutations: PR-M46I L63P V82T ; read by: p24 ; value: 1
C/C(C#N)=C/c1cc(C)c(Nc2ccnc(Nc3ccc(C#N)cc3)n2)c(C)c1 ; mutations: RT-L100I ; read by: cytopathic effect / MTT ; value: 3.95
O=C(N[C@H]1c2ccccc2OC[C@H]1O)[C@H](Cc1cc2ccncc2o1)C[C@H](O)CN1CCN(Cc2ccc(-c3ccc(Cl)cc3)o2)C[C@H]1C(=O)NCC(F)(F)F ; strain: 4X (PR M46I L63P V82T I84V) ; mutations: PR-M46I L63P V82T I84V ; read by: p24 ; value: >4
O=C1c2ccccc2C(=O)N1CCOC(=S)N(C(=O)c1ccccc1)c1ccc(Cl)cc1 ; strain: IIIB ; mutations: RT-K103R V179D P225H ; read by: cytopathic effect / MTT ; value: >1000
O=C(N[C@H]1c2ccccc2OC[C@H]1O)[C@H](Cc1cccnc1)C[C@H](O)CN1CCN(Cc2ccn(-c3cc(Cl)c(Cl)c(Cl)c3)c2)C[C@H]1C(=O)NCC(F)(F)F ; strain: K-60C Clinical isolate ; mutations: PR-L10I M46I I54V Q58E L63P I64V V77I V82F I84V L90M I93L ; read by: p24 ; value: ≥3.8
Nc1nc(=O)n([C@@H]2CO[C@H](CO)S2)cc1F ; strain: HXB2D (RT-M184V) ; mutations: RT-M184V ; read by: RT activity ; value: >15.2
Cc1cc(C#N)cc(C)c1Oc1nc(Nc2ccc(C#N)cc2)ncc1SCC(=O)N1CCSCC1 ; mutations: RES056 ; read by: MTT ; value: 102.1
Cc1cn([C@H]2C=C[C@@H](CO)O2)c(=O)[nH]c1=O ; strain: NNRTI-resistant (RT Y181C) ; mutations: RT-Y181C ; read by: cytopathic effect / MTT ; value: 0.24
CC(C)=CCN1c2cc(Cl)cc3[nH]c(=S)n(c23)C[C@@H]1C ; mutations: RT-M41L T215Y K101E ; value: 15
O=C1c2ccccc2C(=O)N1CCOC(=S)N(C(=O)c1cccs1)c1ccc(Cl)cc1 ; strain: IIIB ; mutations: RT-K103R V179D P225H ; read by: cytopathic effect / MTT ; value: >12500
Nc1ccn([C@H]2CC[C@@H](CO)O2)c(=O)n1 ; strain: IIIB-AZT-2 (RT D67N K70R V108A I135T) ; mutations: RT-D67N K70R V108A I135T ; value: 1.71
CC(=O)Nc1cccc2c1nc(-c1c(F)cccc1F)n2Cc1c(F)cccc1F ; mutations: RT-K103N ; read by: cytopathic effect / MTT ; value: >12.5
Nc1ccn([C@H]2CC[C@@H](CO)O2)c(=O)n1 ; strain: Recombinant mutant ; mutations: RT-E138A ; read by: cytopathic effect / MTT ; value: 0.6
Nc1nc(=O)n([C@H]2CO[C@@H](CO)S2)cc1F ; strain: HxB2D(RT-D67G) ; mutations: RT-D67G ; read by: RT activity ; value: 5.21
Nc1ccn([C@H]2CC[C@@H](CO)O2)c(=O)n1 ; strain: NI-10.93 (HXB2 RT T69N K70R Q151M) ; mutations: RT-T69N K70R Q151M ; read by: cytopathic effect ; value: 8.55
Nc1ccn([C@H]2CC[C@@H](CO)O2)c(=O)n1 ; strain: HXB2D (RT-M184V) ; mutations: RT-M184V ; read by: p24 ; value: 5.56
Cc1cn([C@@H]2O[C@H](CO[Si](C)(C)C(C)(C)C)C3(OS(=O)(=O)C=C3N)[C@H]2O[Si](C)(C)C(C)(C)C)c(=O)n(C)c1=O ; strain: IIIB ; mutations: RT-E138K ; read by: cytopathic effect / MTT ; value: 437
Nc1cccc2c1nc(-c1c(F)cccc1F)n2Cc1c(F)cccc1F ; mutations: RT-L74V ; read by: cytopathic effect / MTT ; value: 0.6
CC(C)c1nc(CN(C)C(=O)N[C@H](C(=O)N[C@@H](Cc2ccccc2)C[C@H](O)[C@H](Cc2ccccc2)NC(=O)OCc2cncs2)C(C)C)cs1 ; strain: NL4-3 ; mutations: PR-D30N M46I A71V ; read by: p24 ; value: 0.8
CCOCn1c(Cc2ccccc2)c(C(C)C)c(=O)[nH]c1=O ; mutations: RT-E138K ; read by: cytopathic effect / MTT ; value: 9.87
O=C1c2ccccc2C(=O)N1CCOC(=S)N(C(=O)c1ccco1)c1ccc(Cl)cc1 ; strain: IIIB ; mutations: RT-K103R V179D P225H ; read by: cytopathic effect / MTT ; value: >14300
O=c1[nH]cnc2c1ncn2[C@H]1CC[C@@H](CO)O1 ; strain: LZ-07.96 (HXB2 RT T69N L74I Q151M M184V) ; mutations: RT-T69N L74I Q151M M184V ; read by: cytopathic effect ; value: 5.05
Nc1ccn([C@@H]2CO[C@H](CO)S2)c(=O)n1 ; strain: HxB2D(RT-D67G) ; mutations: RT-D67G ; read by: RT activity ; value: 2.93
Fc1cccc(F)c1Cn1c(-c2c(F)cccc2F)nc2c(Br)cccc21 ; mutations: RT-Y181C ; read by: cytopathic effect / MTT ; value: 16.8
CCc1c(C)[nH]c(=O)c(N(C)C)c1C(=O)c1cccc(/C(C)=C/C#N)c1 ; mutations: RT-E138K ; read by: cytopathic effect / MTT ; value: 4
O=c1[nH]cnc2c1ncn2[C@H]1CC[C@@H](CO)O1 ; strain: HXB2-D184+294 (RT M184V P294S) ; mutations: RT-M184V P294S ; read by: RT activity ; value: 4.81
CCn1c(=O)c(C)cn([C@@H]2O[C@H](CO[Si](C)(C)C(C)(C)C)C3(OS(=O)(=O)C=C3N)[C@H]2O[Si](C)(C)C(C)(C)C)c1=O ; strain: Recombinant mutant ; mutations: RT-E138A ; read by: cytopathic effect / MTT ; value: 15
Nc1ccn([C@H]2CC[C@@H](CO)O2)c(=O)n1 ; strain: HXB2-D65(RT-K65R) ; mutations: RT-K65R ; read by: p24 ; value: 12.4
CC(C)Nc1cccnc1N1CCN(C(=O)c2cc3cc(NS(C)(=O)=O)ccc3[nH]2)CC1 ; strain: DI-06.92 (HXB2 RT-K70R) ; mutations: RT-K70R ; read by: cytopathic effect ; value: 1
CC(=O)Oc1ccc(/C=C/C(=O)O[C@H](C(=O)O)[C@H](OC(=O)/C=C/c2ccc(OC(C)=O)c(OC(C)=O)c2)C(=O)O)cc1OC(C)=O ; strain: NL4-3 ; mutations: AMD3100-resistant ; read by: cytopathic effect / MTT ; value: >12
Cc1cn([C@H]2C[C@H](N=[N+]=[N-])[C@@H](CO)O2)c(=O)[nH]c1=O ; mutations: F227L V106A ; read by: MTT ; value: 0.2
CCc1c(C)[nH]c(=O)c(N(C)C)c1Cc1cccc(/C=C/C#N)c1 ; mutations: RT-L100I K103N ; read by: cytopathic effect / MTT ; value: 80
O=C(N[C@H]1c2ccccc2OC[C@H]1O)[C@H](Cc1cccnc1)C[C@H](O)CN1CCN(Cc2ccn(-c3ccc(Cl)cc3)c2)C[C@H]1C(=O)NCC(F)(F)F ; strain: K-60C Clinical isolate ; mutations: PR-L10I M46I I54V Q58E L63P I64V V77I V82F I84V L90M I93L ; read by: p24 ; value: ≥1.8
O=c1[nH]cnc2c1ncn2[C@H]1CC[C@@H](CO)O1 ; strain: 126 3TC (RT-M184V) ; mutations: RT-M184V ; read by: p24 ; value: 3.73
Cc1cc(CC#N)cc(C)c1Nc1ccnc(Nc2ccc(C#N)cc2)n1 ; mutations: RT-Y188L ; read by: cytopathic effect / MTT ; value: 313.7
COC(=O)c1cccc2c1nc(-c1c(F)cccc1F)n2Cc1c(F)cccc1F ; mutations: RT-Y188H ; read by: cytopathic effect / MTT ; value: 1.58
CC(C)CN(C[C@@H](O)[C@H](Cc1ccccc1)NC(=O)[C@H](CC(N)=O)NC(=O)c1ccc2ccccc2n1)C(=O)NC(C)(C)C ; strain: NL4-3 ; mutations: PR-M46I V82T I84V ; read by: p24 ; value: 4
CC(=O)Nc1cccc2c1nc(-c1c(F)cccc1F)n2Cc1c(F)cccc1F ; mutations: RT-V106A ; read by: cytopathic effect / MTT ; value: >12.5
CCc1c(C)[nH]c(=O)c(N(C)C)c1C(=O)c1cc(Cl)cc(Cl)c1 ; mutations: RT-V179E ; read by: cytopathic effect / MTT ; value: 7
CCOCn1c(Cc2ccccc2)c(C(C)C)c(=O)[nH]c1=O ; mutations: RT-K103N ; read by: cytopathic effect / MTT ; value: 100
CC(C)Nc1cccnc1N1CCN(C(=O)c2cc3cc(NS(C)(=O)=O)ccc3[nH]2)CC1 ; strain: HXBE30(RT-P236L) ; mutations: RT-P236L ; read by: antigen ; value: 16.7
CC(=O)Oc1ccc(/C=C/C(=O)O[C@H](C(=O)O)[C@H](OC(=O)/C=C/c2ccc(OC(C)=O)c(OC(C)=O)c2)C(=O)O)cc1OC(C)=O ; strain: NL4-3 ; mutations: AR117-resistant ; value: >11.9
O=C1c2ccccc2C(=O)N1CCOC(=S)N(C(=O)c1ccccc1)c1ccccc1 ; strain: IIIB ; mutations: RT-K103R V179D P225H ; read by: cytopathic effect / MTT ; value: >250
CCc1c(C)[nH]c(=O)c(N(C)C)c1C(=O)c1cccc(/C=C/C#N)c1 ; mutations: RT-E138K ; read by: cytopathic effect / MTT ; value: 5
COc1ccc(S(=O)(=O)N(CC(C)C)C[C@@H](O)[C@H](Cc2ccccc2)NC(=O)O[C@H]2CO[C@H]3OCC(F)(F)[C@H]32)cc1 ; strain: NL4-3 ; mutations: L23I E34Q K43I M46I I50L G51A L63P A71V V82A T91A ATV resistant ; value: 36
CCc1c(C)[nH]c(=O)c(N(C)C)c1C(=O)c1cccc(/C=C\C#N)c1 ; mutations: RT-Y181C ; read by: cytopathic effect / MTT ; value: 3.25
CC(=O)c1ccccc1NC(C(N)=O)c1c(Cl)cccc1Cl ; strain: DLV-resistant MF (RT-P236L) ; mutations: RT-P236L ; read by: p24 ; value: 0.533
Cc1ccnc2c1NC(=O)c1cccnc1N2C1CC1 ; strain: HxB2D(RT-D67G) ; mutations: RT-D67G ; read by: RT activity ; value: 0.5
CN(C)c1cccc2c1nc(-c1c(F)cccc1F)n2Cc1c(F)cccc1F ; mutations: RT-M184I ; read by: cytopathic effect / MTT ; value: 0.97
COC(=O)N[C@H](C(=O)N[C@@H](Cc1ccccc1)[C@@H](O)CN(Cc1ccc(-c2ccccn2)cc1)NC(=O)[C@@H](NC(=O)OC)C(C)(C)C)C(C)(C)C ; strain: NL4-3 ; mutations: L10F M46I I54V V82A LPV resistant ; value: 8
Cc1cn([C@H]2C[C@H](N=[N+]=[N-])[C@@H](CO)O2)c(=O)[nH]c1=O ; strain: XM-T69SSS ; mutations: RT-T69SSS L210W T215Y ; read by: p24 ; value: 3850
C=Cc1cccc(C(=O)c2c(CC)c(C)[nH]c(=O)c2N(C)C)c1 ; mutations: RT-K103N ; read by: cytopathic effect / MTT ; value: 16
Cc1cn([C@H]2C=C[C@@H](COC(=O)NCCSC(=O)OC[C@@H]3C=C[C@H](n4cc(C)c(=O)[nH]c4=O)O3)O2)c(=O)[nH]c1=O ; strain: NNRTI-resistant (RT Y181C) ; mutations: RT-Y181C ; read by: cytopathic effect / MTT ; value: 0.16
C/C(=C\C#N)c1cc(C)c(Nc2ccnc(Nc3ccc(C#N)cc3)n2)c(C)c1 ; mutations: RT-L100I K103N ; read by: cytopathic effect / MTT ; value: 25.1
CC(C)=CCN1Cc2cc(Cl)cc3[nH]c(=S)n(c23)C[C@@H]1C ; strain: HXB2 (RT E138A S162C E169D T200A L214F) Clinical isolate ; mutations: RT-E138A S162C E169D T200A L214F ; read by: cytopathic effect / MTT ; value: 9
Cc1cn([C@H]2C[C@H](N=[N+]=[N-])[C@@H](COC(=O)NCCSC(=O)OC[C@H]3O[C@@H](n4cc(C)c(=O)[nH]c4=O)C[C@@H]3N=[N+]=[N-])O2)c(=O)[nH]c1=O ; strain: NNRTI-resistant (RT Y181C) ; mutations: RT-Y181C ; read by: cytopathic effect / MTT ; value: 0.2
O=c1[nH]cnc2c1ncn2[C@H]1CC[C@@H](CO)O1 ; strain: Recombinant mutant ; mutations: RT-A98S E138A ; read by: cytopathic effect / MTT ; value: 0.9
CC(C)CN(C[C@@H](O)[C@H](Cc1ccccc1)NC(=O)O[C@H]1CO[C@H]2OCC(F)(F)[C@H]21)S(=O)(=O)c1ccc(N)cc1 ; strain: NL4-3 ; mutations: L23I E34Q K43I M46I I50L G51A L63P A71V V82A T91A ATV resistant ; value: 12
CNc1cccc2c1nc(-c1c(F)cccc1F)n2Cc1c(F)cccc1F ; mutations: RT-K103N ; read by: cytopathic effect / MTT ; value: 20.4

Repeating the final 5 entries:

structure,strain,mutations,read by,value
CC(C)=CCN1Cc2cc(Cl)cc3[nH]c(=S)n(c23)C[C@@H]1C,HXB2 (RT E138A S162C E169D T200A L214F) Clinical isolate,RT-E138A S162C E169D T200A L214F,cytopathic effect / MTT,9
Cc1cn([C@H]2C[C@H](N=[N+]=[N-])[C@@H](COC(=O)NCCSC(=O)OC[C@H]3O[C@@H](n4cc(C)c(=O)[nH]c4=O)C[C@@H]3N=[N+]=[N-])O2)c(=O)[nH]c1=O,NNRTI-resistant (RT Y181C),RT-Y181C,cytopathic effect / MTT,0.2
O=c1[nH]cnc2c1ncn2[C@H]1CC[C@@H](CO)O1,Recombinant mutant,RT-A98S E138A,cytopathic effect / MTT,0.9
CC(C)CN(C[C@@H](O)[C@H](Cc1ccccc1)NC(=O)O[C@H]1CO[C@H]2OCC(F)(F)[C@H]21)S(=O)(=O)c1ccc(N)cc1,NL4-3,L23I E34Q K43I M46I I50L G51A L63P A71V V82A T91A ATV resistant,-,12
CNc1cccc2c1nc(-c1c(F)cccc1F)n2Cc1c(F)cccc1F,-,RT-K103N,cytopathic effect / MTT,20.4

Conditions beyond the fields shown may differ between rows. Fold resistance: result on the changed form divided by that on wild type.